Potato spindle tuber viroid, loop 6: variant abundance in plants

The pool varies loop 6 of the PSTVd intermediate strain in the pattern UNNNCGNNNG; wild type is UGACCGCGAG (upper and lower strand joined, each 5' to 3', the first 5 letters being the upper strand, closing pairs included).

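A pool of all variants was put on leaves of three Nicotiana benthamiana plants. Samples came from the inoculated region at 5 days, the leaf margin at 10 and upper systemic leaves at 12.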

Values are reads per thousand in the sample; higher means more abundant, 0 means not found. Each site shows the three plants. "Pool" is the share in the plasmid pool used as inoculum, on the same scale. The inoculated region was read from the minus strand, the other sites from the plus strand.

{"sequence": "UAGUCGCCCG", "pool": "0.327", "inoculated region": "0.104 / 0.0539 / 0.0553", "leaf margin": "0.0276 / 0 / 0", "systemic leaves": "0 / 0 / 0"}
{"sequence": "UAGUCGCCGG", "pool": "0.0915", "inoculated region": "0.0869 / 0.0719 / 0.0922", "leaf margin": "0 / 0 / 0", "systemic leaves": "0 / 0 / 0"}
{"sequence": "UAGUCGCCUG", "pool": "0.157", "inoculated region": "0.0695 / 0.0180 / 0.0184", "leaf margin": "0 / 0 / 0", "systemic leaves": "0 / 0 / 0"}
{"sequence": "UAGUCGCGAG", "pool": "0.196", "inoculated region": "0.174 / 0.0898 / 0.166", "leaf margin": "0.110 / 0.0252 / 0", "systemic leaves": "0 / 0.202 / 0"}
{"sequence": "UAGUCGCGCG", "pool": "0.235", "inoculated region": "0.122 / 0.108 / 0.0553", "leaf margin": "0 / 0 / 0.0232", "systemic leaves": "0 / 0 / 0"}
{"sequence": "UAGUCGCGGG", "pool": "0.353", "inoculated region": "0.0869 / 0.0898 / 0.0184", "leaf margin": "0 / 0 / 0.0464", "systemic leaves": "0 / 0 / 0"}
{"sequence": "UAGUCGCGUG", "pool": "0.196", "inoculated region": "0.0695 / 0.144 / 0.0922", "leaf margin": "0.0276 / 0 / 0.0232", "systemic leaves": "0 / 0 / 0"}
{"sequence": "UAGUCGCUAG", "pool": "0.0784", "inoculated region": "0.174 / 0.0898 / 0.0369", "leaf margin": "0 / 0 / 0.0232", "systemic leaves": "0 / 0 / 0"}
{"sequence": "UAGUCGCUCG", "pool": "0.327", "inoculated region": "0.174 / 0.0898 / 0.0369", "leaf margin": "0 / 0 / 0.0232", "systemic leaves": "0 / 0 / 0"}
{"sequence": "UAGUCGCUGG", "pool": "0.196", "inoculated region": "0.0348 / 0.0719 / 0.0553", "leaf margin": "0 / 0 / 0.0232", "systemic leaves": "0 / 0 / 0"}
{"sequence": "UAGUCGCUUG", "pool": "0.183", "inoculated region": "0.122 / 0.0539 / 0.0369", "leaf margin": "0 / 0 / 0", "systemic leaves": "0 / 0 / 0"}
{"sequence": "UAGUCGGAAG", "pool": "0.105", "inoculated region": "0.122 / 0.144 / 0.0553", "leaf margin": "0.0552 / 0 / 0", "systemic leaves": "0 / 0 / 0"}
{"sequence": "UAGUCGGACC", "pool": "0.0131", "inoculated region": "0 / 0 / 0", "leaf margin": "0 / 0 / 0", "systemic leaves": "0 / 0 / 0"}
{"sequence": "UAGUCGGACG", "pool": "0.170", "inoculated region": "0.104 / 0.0898 / 0.0738", "leaf margin": "0 / 0 / 0", "systemic leaves": "0 / 0 / 0"}
{"sequence": "UAGUCGGAGG", "pool": "0.209", "inoculated region": "0.0695 / 0.0898 / 0.0922", "leaf margin": "0.0276 / 0 / 0", "systemic leaves": "0 / 0 / 0"}
{"sequence": "UAGUCGGAUG", "pool": "0.131", "inoculated region": "0.104 / 0.0180 / 0.0553", "leaf margin": "0.0552 / 0 / 0", "systemic leaves": "0 / 0 / 0"}
{"sequence": "UAGUCGGCAG", "pool": "0.170", "inoculated region": "0.0869 / 0.0539 / 0.111", "leaf margin": "0 / 0 / 0", "systemic leaves": "0 / 0 / 0"}
{"sequence": "UAGUCGGCCG", "pool": "0.157", "inoculated region": "0.139 / 0.0539 / 0.0369", "leaf margin": "0.0276 / 0 / 0", "systemic leaves": "0 / 0 / 0"}
{"sequence": "UAGUCGGCGG", "pool": "0.157", "inoculated region": "0.122 / 0.0359 / 0.0922", "leaf margin": "0 / 0 / 0", "systemic leaves": "0 / 0 / 0"}
{"sequence": "UAGUCGGCUG", "pool": "0.196", "inoculated region": "0.0174 / 0.0898 / 0.0369", "leaf margin": "0 / 0 / 0", "systemic leaves": "0 / 0 / 0"}
{"sequence": "UAGUCGGGAG", "pool": "0.261", "inoculated region": "0.695 / 0.611 / 0.645", "leaf margin": "0.0276 / 0.151 / 0.0928", "systemic leaves": "0 / 0 / 0"}
{"sequence": "UAGUCGGGCG", "pool": "0.0915", "inoculated region": "0.678 / 0.593 / 0.516", "leaf margin": "0.0552 / 0.0252 / 0", "systemic leaves": "0 / 0 / 0"}
{"sequence": "UAGUCGGGGG", "pool": "0.0784", "inoculated region": "0.139 / 0.0539 / 0.0553", "leaf margin": "0 / 0 / 0", "systemic leaves": "0 / 0 / 0"}
{"sequence": "UAGUCGGGUG", "pool": "0.353", "inoculated region": "0.139 / 0.162 / 0.166", "leaf margin": "0 / 0 / 0", "systemic leaves": "0 / 0 / 0"}
{"sequence": "UAGUCGGUAG", "pool": "0.275", "inoculated region": "0.0869 / 0.0719 / 0.111", "leaf margin": "0 / 0 / 0.0232", "systemic leaves": "0 / 0 / 0"}
{"sequence": "UAGUCGGUCG", "pool": "0.222", "inoculated region": "0.243 / 0.180 / 0.0184", "leaf margin": "0.0276 / 0 / 0", "systemic leaves": "0 / 0 / 0"}
{"sequence": "UAGUCGGUGG", "pool": "0.235", "inoculated region": "0.0521 / 0.126 / 0.0369", "leaf margin": "0 / 0 / 0", "systemic leaves": "0 / 0 / 0"}
{"sequence": "UAGUCGGUUG", "pool": "0.235", "inoculated region": "0.0695 / 0.108 / 0.0922", "leaf margin": "0 / 0 / 0", "systemic leaves": "0 / 0 / 0"}

Extract of 2 entries:

{"sequence": "UAGUCGGAUG", "pool": "0.131", "inoculated region": "0.104 / 0.0180 / 0.0553", "leaf margin": "0.0552 / 0 / 0", "systemic leaves": "0 / 0 / 0"}
{"sequence": "UAGUCGCGUG", "pool": "0.196", "inoculated region": "0.0695 / 0.144 / 0.0922", "leaf margin": "0.0276 / 0 / 0.0232", "systemic leaves": "0 / 0 / 0"}

Wild type was 20.7 per thousand in the pool and the most common sequence in every sample (inoculated region 195, 198, 203; leaf margin 629, 591, 734; systemic leaves 942, 870, 868). The authors trace changes outside the varied positions to PCR and sequencing errors or to mutation in the plant; presence does not show that a variant is infectious alone. Samples held 36,220 to 57,551 reads, so the smallest values rest on one or two reads.

Reference: Wu et al. 2024, doi:10.1371/journal.ppat.1012142.